A mixed list of measured activities; the numbers were collected in NIAID ChemDB.

Shared fields: target-level tests; agent: HIV-1; protein: Reverse transcriptase; read-out: fold resistance

Conditions beyond the fields shown may differ between rows. An empty or dashed field is not shown. Fold resistance has wild type as its base. a–b is a range or a potency band.

compound,strain or isolate,mutations,read by,value
NC(=O)c1[nH]c2ccc(Cl)cc2c1S(=O)(=O)c1ccccc1,-,RT-V106A,nucleotide incorporation / radiometric,75
CCN1c2ncc(CCOc3ccc4[nH]c(=O)[nH]c4c3)cc2C(=O)N(C)c2cccnc21,IIIB,RT-K103N Y181C,nucleotide incorporation / radiometric,>1
CCN1c2ncc(CCOc3ccc4cc(C(=O)NC(C)(C)C(=O)O)ccc4c3)cc2C(=O)N(C)c2cccnc21,-,RT-V106A,nucleotide incorporation / radiometric,1–10
Cc1cc(C)cc(S(=O)(=O)c2c(C(N)=O)[nH]c3ccc(Cl)cc23)c1,-,RT-V179D,nucleotide incorporation / radiometric,16.6
Cc1cc(C(=O)O)ccc1NC(=O)CSc1nnc(C(F)F)n1-c1ccc(C)c2c1CCCC2,-,RT-Y188L,nucleotide incorporation / radiometric,>2
CCN1c2ncc(CCOc3cccc4c3n(C)c(=O)n4C)cc2C(=O)N(C)c2cccnc21,IIIB,RT-K103N Y181C,nucleotide incorporation / radiometric,>1
CC(C)C[C@H](NC(=O)c1ccc(NC(=O)CSc2nnc(Br)n2-c2ccc(C3CC3)c3ccccc23)c(Cl)c1)C(=O)O,-,RT-Y188L,nucleotide incorporation / radiometric,>1
CCN1c2ncc(CCOc3cccc4c3C(C)(C)OC(=O)N4)cc2C(=O)N(C)c2cccnc21,IIIB,RT-K103N Y181C,nucleotide incorporation / radiometric,>1
CCN1c2ncc(CCOc3ccc(CC(=O)O)c4ccccc34)cc2C(=O)N(C)c2cccnc21,-,RT-Y188L,nucleotide incorporation / radiometric,>10
CCN1c2ncc(CCOc3ccc4c(c3)CNC(=O)N4C)cc2C(=O)N(C)c2cccnc21,IIIB,RT-K103N Y181C,nucleotide incorporation / radiometric,>2
COC(=O)NCCCCNc1nc(Cc2ccccc2)c(C)c(=O)[nH]1,-,RT-L100I,-,3.04
CCN1c2ncc(CCOc3cccc4c3CN(C)C(=O)N4C)cc2C(=O)N(C)c2cccnc21,IIIB,RT-K103N Y181C,nucleotide incorporation / radiometric,>2
Cc1c(Cc2ccccc2)nc(SCCCCO)[nH]c1=O,-,RT-V106A,-,1.37
CCN1c2ncc(CCOc3cccc4c3COC(=O)N4)cc2C(=O)N(C)c2cccnc21,IIIB,RT-K103N Y181C,nucleotide incorporation / radiometric,>2
COc1ccc2cccc(-n3c(Br)nnc3SCC(=O)Nc3ccc(C(=O)O)cc3Cl)c2c1,-,RT-Y188L,nucleotide incorporation / radiometric,>2
CC(C)=CCOc1cc(NC(=S)c2ccoc2C)ccc1Cl,-,RT-P236L,-,0.34
CCN1c2ncc(CCOc3ccc(-c4ccc(CCC(=O)O)o4)cc3C)cc2C(=O)N(C)c2cccnc21,IIIB,RT-K103N Y181C,nucleotide incorporation / radiometric,>2
CCN1c2ncc(CCOc3ccc(CCC(=O)O)c4ccccc34)cc2C(=O)Nc2c(C)cc(Cl)nc21,-,RT-V106A,nucleotide incorporation / radiometric,1–10
CCN1c2ncc(CCOc3ccc4c(c3)CNC(=O)N4)cc2C(=O)N(C)c2cccnc21,IIIB,RT-K103N Y181C,nucleotide incorporation / radiometric,>1
CC[C@H](C)[C@H](NC(=O)c1ccc(NC(=O)CSc2nnc(Br)n2-c2ccc(C3CC3)c3ccccc23)c(Cl)c1)C(=O)O,-,RT-Y188L,nucleotide incorporation / radiometric,>1
CCN1c2ncc(CCOc3ccc(NC(=O)CC(C)(C)C(=O)O)c4ccccc34)cc2C(=O)N(C)c2cccnc21,-,RT-V106A,nucleotide incorporation / radiometric,>10
CCc1ccc(-n2c(Br)nnc2SCC(=O)Nc2ccc(C(=O)NCC(=O)O)cc2Cl)c2ccccc12,-,RT-Y188L,nucleotide incorporation / radiometric,>2
CCN1c2ncc(CCOc3ccc(-c4cc(F)c(O)c(F)c4)cc3C)cc2C(=O)N(C)c2cccnc21,IIIB,RT-K103N Y181C,nucleotide incorporation / radiometric,>1
CCc1cc(CCc2nc3ccccc3o2)c(=O)[nH]c1C,-,RT-Y188H,nucleotide incorporation,19.8
CC(C)=CCOc1cc(NC(=S)c2ccsc2C)ccc1Cl,-,RT-L74V,-,1
CCN1c2ncc(CCOc3ccc(-c4cc(Cl)c(C(=O)O)cc4F)cc3C)cc2C(=O)N(C)c2cccnc21,IIIB,RT-K103N Y181C,nucleotide incorporation / radiometric,1
CCN1c2ncc(CCOc3cccc4c3CN(O)C4=O)cc2C(=O)N(C)c2cccnc21,IIIB,RT-K103N Y181C,nucleotide incorporation / radiometric,>1
CCN1c2ncc(CCOc3ccc(C(=O)NC(C)(C)CC(=O)O)cc3C)cc2C(=O)N(C)c2cccnc21,IIIB,RT-K103N Y181C,nucleotide incorporation / radiometric,>2
CC(C)=CCN1Cc2cccc3[nH]c(=S)n(c23)C[C@@H]1C,-,RT-Y188L,nucleotide incorporation,532
CCN1c2ncccc2NC(=O)c2cc(CCOc3ccc(-c4ccc(CC(=O)O)cc4)cc3C)cnc21,IIIB,RT-K103N Y181C,nucleotide incorporation / radiometric,>1
O=c1cc(Cc2ccccc2)nc(SCCCCO)[nH]1,-,RT-K103N,-,>10

A second listing of 3 rows from above:

compound | strain or isolate | mutations | read by | value
COC(=O)NCCCCNc1nc(Cc2ccccc2)c(C)c(=O)[nH]1 | - | RT-L100I | - | 3.04
CC(C)=CCOc1cc(NC(=S)c2ccoc2C)ccc1Cl | - | RT-P236L | - | 0.34
CCN1c2ncc(CCOc3ccc(C(=O)NC(C)(C)CC(=O)O)cc3C)cc2C(=O)N(C)c2cccnc21 | IIIB | RT-K103N Y181C | nucleotide incorporation / radiometric | >2